According to article PMC3084762, “Distinct Properties of Hexameric but Functionally Conserved Mycobacterium tuberculosis Transcription-Repair Coupling Factor” (PLoS ONE, 2011):
Several values for one entry are separate records, joined by “and”; a condition that tells them apart may be missing. Equal entries are not always repeated.

Tested on: Nc1ncnc2c1ncn2[C@@H]1O[C@H](COP(=O)(O)OP(=O)(O)OP(=O)(O)O)[C@@H](O)[C@H]1O
Assay: purified protein
Details: pH 8.0; 37.0 °C

Substance: (Mycobacterium tuberculosis H37Rv)
- Km: 1100 ± 300 µM and 1300 ± 200 µM
